Data on one substance can be found in PMC9367177, “Engineering SARS-CoV-2 neutralizing antibodies for increased potency and reduced viral escape pathways” (2022).

By Kd is commonly meant the concentration at which binding is half-saturated.

This assay addresses eCC6.30.2 IgG. In words: SPR. To be noted: Fc-capture, multi-cycle; 1:1 Langmuir binding model; parent: est. 3.9e-11; read off a plot.

As for “SARS-CoV-2 RBD (Wuhan-1), monomeric, His-Avitag L452R”, the Kd was found to be 2.8 nM.
